Results of unrelated studies side by side (data: NIAID ChemDB).

Shared fields: growth or infection tests; agent: HIV-1; cell line: MT-2; read-out: EC50

Conditions beyond the fields shown may differ between rows. ECn: concentration that inhibits the pathogen or its effect by n%. Blank or dashed fields: not listed here. Two numbers with a dash give a range or band.

structure,read by,strain,mutations,setting,value
CC1([C@@H]2CC[C@]3(NC(=O)N4CCC[C@H]4CN4CCCC4)CC[C@]4(C)[C@H](CC[C@@H]5[C@@]6(C)CC=C(c7ccc(C(=O)O)cc7)C(C)(C)[C@@H]6CC[C@]54C)[C@@H]23)CC1,p24 / ELISA,92HT599,-,-,≤0.01 µM
N#Cc1ccc(Nc2ncc(Cc3c(Cl)cccc3Cl)s2)cc1,MTT,IIIB,-,-,0.43 µM
C=C(C)[C@@H]1CC[C@]2(NC(=O)N3CCC(OCCOCCOC)CC3)CC[C@]3(C)[C@H](CC[C@@H]4[C@@]5(C)CC=C(c6ccc(C(=O)O)cc6)C(C)(C)[C@@H]5CC[C@]43C)[C@@H]12,p24 / ELISA,92HT599,-,-,≤0.01 µM
Cc1ncnn1-c1cc(F)ccc1CNC(=O)c1nc2n(c(=O)c1O)CCOCC21CCN(C(=O)OCc2ccccc2)CC1,-,NL4-3,-,-,0.001–0.01 µM
COP(=O)(c1cc(C)cc(CCC#N)c1)c1c(C(N)=O)[nH]c2ccc(Cl)c(F)c12,-,BH10,-,-,0.0009 µM
Cc1cc(/C=C/C#N)cc(C)c1Oc1ccc(N)c(Nc2ccc(C#N)cc2)n1,p24 / ELISA,IIIB,-,-,0.014 µM
CC(C)C1=C2[C@H]3CC[C@@H]4[C@@]5(C)CC[C@H](OC(=O)[C@H]6C[C@@H](C(=O)O)C6(C)C)C(C)(C)[C@@H]5CC[C@@]4(C)[C@]3(C)CC[C@@]2(CCNC(=O)c2ccc(Cl)cn2)CC1=O,p24 / ELISA,92HT599,-,-,<1 µM
COc1ccc(N(C)C(=O)[C@H](Cc2cc(F)cc(F)c2)NC(=O)c2ccc(F)c(C(=O)N[C@@H](Cc3cc(F)cc(F)c3)C(=O)N(C)c3ccc(OC)nc3)c2)cn1,luciferase,NL4-3,-,-,0.37 µM
CCOc1cc(-c2nccc3cc(OC)c(OC)cc23)cc(OCC)c1OCC,p24,-,-,-,5 µM
CC(C)C1=C2[C@H]3CC[C@@H]4[C@@]5(C)CC[C@H](OC(=O)[C@H]6C[C@@H](C(=O)O)C6(C)C)C(C)(C)[C@@H]5CC[C@@]4(C)[C@]3(C)CC[C@@]2(NC(=O)C(C)(C)NC(=O)c2nc3ccccc3[nH]2)CC1=O,p24 / ELISA,92HT599,-,-,<0.003 µM
COC(=O)[C@H](CCCCNC(=O)/C=C/c1ccc(O)c(O)c1)NC(=O)/C=C/c1ccc(O)c(O)c1,cytopathic effect / neutral red,LAI,-,-,10 µM
COc1ccc(N(CCF)C(=O)[C@H](Cc2cc(F)cc(F)c2)NC(=O)Cn2c(=O)n(CC(=O)N[C@@H](Cc3cc(F)cc(F)c3)C(=O)N(CCF)c3ccc(OC)cc3)c3ccccc32)cc1,luciferase,NL4-3,-,-,0.34 µM
C=C(C)[C@@H]1CC[C@]2(CNCC(=O)NS(=O)(=O)C3CC3)CC[C@]3(C)[C@H](CC[C@@H]4[C@@]5(C)CC=C(c6ccc(C(=O)O)cc6)C(C)(C)[C@@H]5CC[C@]43C)[C@@H]12,-,NL4-3,-,-,<0.1 µM
N#Cc1nc(Cc2cccc3ccccc23)oc1NC[C@H]1CCCO1,MTT,IIIB,-,-,6.2 µM
CC1([C@@H]2CC[C@]3(NC(=O)N4CC(O)C4)CC[C@]4(C)[C@H](CC[C@@H]5[C@@]6(C)CC=C(c7ccc(C(=O)O)cc7)C(C)(C)[C@@H]6CC[C@]54C)[C@@H]23)CC1,p24 / ELISA,92HT599,-,-,≤0.01 µM
CCCCCCCCCCCCCCCCCCOCCOP(=O)(O)CO[C@H](CO)Cn1cnc2c(N)ncnc21,p24,LAI WT,RT,-,0.0004 µM
COc1ccc(N(C)C(=O)C(Cc2cc(F)cc(F)c2)NC(=O)NS(=O)(=O)N[C@@H](Cc2ccccc2)C(=O)N(C)c2ccc(OC)cc2)cc1,luciferase,NL4-3,-,-,0.01 µM
CC(C)C1=C2[C@H]3CC[C@@H]4[C@@]5(C)CC[C@H](OC(=O)[C@H]6C[C@@H](C(=O)O)C6(C)C)C(C)(C)[C@@H]5CC[C@@]4(C)[C@]3(C)CC[C@@]2(CCNCC(C)(C)NC(=O)c2ncc[nH]2)CC1=O,p24 / ELISA,92HT599,-,-,<1 µM
COC(=O)C(CCCNC(=O)/C=C/c1cc(O)c(O)c(O)c1)NC(=O)/C=C/c1cc(O)c(O)c(O)c1,cytopathic effect / neutral red,LAI,-,-,10 µM
COCCNC(=O)c1c(O)c2ncc(Cc3ccc(F)cc3)c3c2n(c1=O)C[C@](C)(C(=O)N1CCOCC1)O3,ATP / luminescence,IIIB,-,-,0.0143 µM
CN(C)CCNC(=O)N[C@]12CC[C@@H](C3(C)CC3)[C@@H]1[C@H]1CC[C@@H]3[C@@]4(C)CC=C(c5ccc(C(=O)O)cc5)C(C)(C)[C@@H]4CC[C@@]3(C)[C@]1(C)CC2,p24 / ELISA,92HT599,-,-,≤0.01 µM
Cc1cc(C#CC(C)(C)O)cc(C)c1Oc1ccc([N+](=O)[O-])c(Nc2ccc(C#N)cc2)n1,p24 / ELISA,IIIB,-,10% FBS,8.91 µM
O=C(/C=C/c1cc(O)c(O)c(O)c1)NCCC(NC(=O)/C=C/c1cc(O)c(O)c(O)c1)C(=O)O,cytopathic effect / neutral red,LAI,-,-,1.7 µM
CC1([C@@H]2CC[C@]3(NC(=O)NC4C=C[C@H](CO)C4)CC[C@]4(C)[C@H](CC[C@@H]5[C@@]6(C)CC=C(c7ccc(C(=O)O)cc7)C(C)(C)[C@@H]6CC[C@]54C)[C@@H]23)CC1,p24 / ELISA,92HT599,-,-,≤0.01 µM
COc1ccc(C(=O)NC[C@H](O)[C@@]23CC[C@]4(C)[C@H](CC[C@@H]5[C@@]6(C)CC[C@H](OC(=O)[C@H]7C[C@@H](C(=O)O)C7(C)C)C(C)(C)[C@@H]6CC[C@]54C)C2=C(C(C)C)C(=O)C3)cc1,p24 / ELISA,92HT599,-,-,<1 µM
COC(=O)[C@H](CCCCNC(=O)c1cc(O)c(O)c(O)c1)NC(=O)c1cc(O)c(O)c(O)c1,cytopathic effect / neutral red,LAI,-,-,>62.5 µM
CCCCCCCCCCCCCCCCCCOC[C@H](COP(=O)(O)C(=O)O)OCC,p24,LAI,-,-,390 µM
[2H]C(CNC[C@H](O)[C@@]12CC[C@]3(C)[C@H](CC[C@@H]4[C@@]5(C)CC[C@H](OC(=O)[C@H]6C[C@@H](C(=O)O)C6(C)C)C(C)(C)[C@@H]5CC[C@]43C)C1=C(C(C)C)C(=O)C2)NC(=O)c1ccc(Cl)cc1,p24 / ELISA,92HT599,-,-,<1 µM
CCc1ccc(Nc2ncc(Cc3c(F)cccc3F)o2)cc1,MTT,IIIB,-,-,1.4 µM
CC(C)C1=C2[C@H]3CC[C@@H]4[C@@]5(C)CC[C@H](OC(=O)[C@H]6C[C@@H](C(=O)O)C6(C)C)C(C)(C)[C@@H]5CC[C@@]4(C)[C@]3(C)CC[C@@]2([C@@H](O)CNC(=O)C(C)(C)NC(=O)c2ncccn2)CC1=O,p24 / ELISA,92HT599,-,-,<1 µM
COC(=O)C(CCNC(=O)/C=C/c1cc(O)c(O)c(O)c1)NC(=O)/C=C/c1cc(O)c(O)c(O)c1,cytopathic effect / neutral red,LAI,-,-,19.4 µM
C[Si](C)(CCCn1cnc2c(N)ncnc21)O[Si](C)(C)CCCn1cnc2c(N)ncnc21,MTT,IIIB,-,-,86 µM
COCCNC(=O)c1c(O)c2ncc(Cc3ccc(F)cc3)c3c2n(c1=O)C[C@H](CN1CCCC1)O3,ATP / luminescence,IIIB,-,-,0.021 µM
Cc1ncnn1-c1cc(F)ccc1CNC(=O)c1nc2n(c(=O)c1O)CCOC21CCN(S(C)(=O)=O)C1,luciferase / reporter gene,NL4-3,-,-,0.01–0.1 µM
O=C(NCCCC(NC(=O)c1cc(O)c(O)c(O)c1)C(=O)O)c1cc(O)c(O)c(O)c1,cytopathic effect / neutral red,LAI,-,-,2.5 µM
CCc1ccc(Nc2ncc(Cc3c(Cl)cccc3Cl)o2)cc1,MTT,IIIB,-,-,2.8 µM
CC(C)CN(C[C@@H](O)[C@H](Cc1ccccc1)NC(=O)O[C@H]1CO[C@H]2OCC[C@H]21)S(=O)(=O)c1ccc(C(N)=O)cc1,p24 / luminescence,LAI,-,-,0.093 µM
COc1ccc(-n2ccnc2[C@H](Cc2ccccc2)NC(=O)CN2c3ccccc3N(CC(=O)N[C@@H](Cc3ccccc3)c3nccn3-c3ccc(OC)cc3)S2(=O)=O)cc1,luciferase,NL4-3,-,-,6.7 µM
COC(=O)C(CCCCNC(=O)/C=C/c1cc(O)c(O)c(O)c1)NC(=O)/C=C/c1cc(O)c(O)c(O)c1,cytopathic effect / neutral red,LAI,-,-,35.9 µM
Cc1ncnn1-c1cc(F)ccc1CNC(=O)c1nc2n(c(=O)c1O)CCOCC21CCN(S(=O)(=O)N(C)C)CC1,luciferase / reporter gene,NL4-3,-,-,0.01–0.1 µM
C[Si](O)(O[Si](C)(CCCn1cnc2c(N)ncnc21)c1ccccc1)c1ccccc1,cytopathic effect / MTT,IIIB,-,-,10 µM
CNC(=O)c1c(O)c2ncc(Cc3ccc(F)cc3)c3c2n(c1=O)CC[C@H](C(C)=O)O3,ATP / luminescence,IIIB,-,-,0.043 µM
C#C[C@@]1(CO)C=C[C@H](n2cc(C)c(=O)[nH]c2=O)O1,cytopathic effect / MTT,IIIB,-,-,0.16 µM
CCNc1cccnc1N1CCN(C(=O)c2cc3ccccc3o2)CC1,syncytia,-,-,-,2 µM
CCOC(=O)C(=O)N1CCC2(C1)OCCn1c2nc(C(=O)NCc2ccc(F)cc2-n2ncnc2C)c(O)c1=O,luciferase / reporter gene,NL4-3,-,-,≥0.1 µM
C[Si](C)(CCCn1ccnc1)O[Si](C)(C)CCCn1ccnc1,MTT,IIIB,-,-,11 µM
O=C(NCC(NC(=O)c1ccc(O)c(O)c1)C(=O)O)c1ccc(O)c(O)c1,cytopathic effect / neutral red,LAI,-,-,94 µM
COc1ccc(C(=O)NC(C)(C)C(=O)N[C@@]23CC[C@]4(C)[C@H](CC[C@@H]5[C@@]6(C)CC[C@H](OC(=O)[C@H]7C[C@@H](C(=O)O)C7(C)C)C(C)(C)[C@@H]6CC[C@]54C)C2=C(C(C)C)C(=O)C3)cc1,p24 / ELISA,92HT599,-,-,<0.003 µM
C=C(C)[C@@H]1CC[C@]2(NC(=O)N3CCC(OCCN4CCOCC4)CC3)CC[C@]3(C)[C@H](CC[C@@H]4[C@@]5(C)CC=C(c6ccc(C(=O)O)cc6)C(C)(C)[C@@H]5CC[C@]43C)[C@@H]12,p24 / ELISA,92HT599,-,-,≤0.01 µM
CC(C)C1=C2[C@H]3CC[C@@H]4[C@@]5(C)CC[C@H](OC(=O)[C@H]6C[C@@H](C(=O)O)C6(C)C)C(C)(C)[C@@H]5CC[C@@]4(C)[C@]3(C)CC[C@@]2(NC(=O)C(C)(C)NC(=O)c2ccc(Cl)cc2OCCN2CCOCC2)CC1=O,p24 / ELISA,92HT599,-,-,<0.003 µM
CCCCCCCCCCCCCCCCOCCCOP(=O)(O)CO[C@H](CO)Cn1cnc2c(N)ncnc21,p24,-,RT-M184V,-,0.03 µM
CC[C@H](C)[C@H](NC(=O)c1ccccc1SSc1ccccc1C(=O)N[C@H](C(=O)O)[C@@H](C)CC)C(=O)O,XTT,AZT-resistant,-,-,6.4 µM
CC(C)C1=C2[C@H]3CC[C@@H]4[C@@]5(C)CC[C@H](OC(=O)[C@H]6C[C@@H](C(=O)O)C6(C)C)C(C)(C)[C@@H]5CC[C@@]4(C)[C@]3(C)CC[C@@]2(NC(=O)C(C)(C)NC(=O)c2ccc(Cl)cc2OC2CCNCC2)CC1=O,p24 / ELISA,92HT599,-,-,<0.003 µM
[2H]C([2H])(NC(=O)C[C@@]12CC[C@]3(C)[C@H](CC[C@@H]4[C@@]5(C)CC[C@H](OC(=O)[C@H]6C[C@@H](C(=O)O)C6(C)C)C(C)(C)[C@@H]5CC[C@]43C)C1=C(C(C)C)C(=O)C2)c1ccccc1,p24 / ELISA,92HT599,-,-,<1 µM
CC1([C@@H]2CC[C@]3(NC(=O)NC(CO)CO)CC[C@]4(C)[C@H](CC[C@@H]5[C@@]6(C)CC=C(c7ccc(C(=O)O)cc7)C(C)(C)[C@@H]6CC[C@]54C)[C@@H]23)CC1,p24 / ELISA,92HT599,-,-,≤0.01 µM
Cc1noc(C)c1C(=O)NCC[C@@]12CC[C@]3(C)[C@H](CC[C@@H]4[C@@]5(C)CC[C@H](OC(=O)[C@H]6C[C@@H](C(=O)O)C6(C)C)C(C)(C)[C@@H]5CC[C@]43C)C1=C(C(C)C)C(=O)C2,p24 / ELISA,92HT599,-,-,<1 µM
CNC(=O)c1c(O)c2ncc(Cc3ccc(F)cc3)c3c2n(c1=O)C[C@H](CN1CCN(S(C)(=O)=O)CC1)O3,ATP / luminescence,IIIB,-,-,0.0004 µM
CC(c1nnc(Nc2ccc(C#N)cc2)o1)c1c(F)cccc1F,MTT,IIIB,-,-,0.13 µM
COC(=O)N1CCC2(CC1)OCCCn1c2nc(C(=O)NCc2ccc(F)cc2-n2ncnc2C)c(O)c1=O,luciferase / reporter gene,NL4-3,-,-,0.001–0.01 µM
C=C(C)[C@@H]1CC[C@]2(NCCCN3CCOCC3)CC[C@]3(C)[C@H](CC[C@@H]4[C@@]5(C)CC=C(c6ccc(C(=O)O)cc6)C(C)(C)[C@@H]5CC[C@]43C)[C@@H]12,-,NL4-3,-,-,<0.1 µM
CC(C)C1=C2[C@H]3CC[C@@H]4[C@@]5(C)CC[C@H](OC(=O)[C@H]6C[C@@H](C(=O)O)C6(C)C)C(C)(C)[C@@H]5CC[C@@]4(C)[C@]3(C)CC[C@@]2(NC(=O)C(C)(C)NC(=O)c2ccc(N3CCS(=O)(=O)CC3)nc2)CC1=O,p24 / ELISA,92HT599,-,-,<0.003 µM